Data on one molecule can be found in patent publication US20140357845A1 (published 2014).

Common to all, as to assay: FACS
For orientation: In flow cytometry, cells or beads pass a laser one at a time.

For assay [1], the target named is mini-H3 cluster1 + 2 + 3 + 4 + 5 + 6 + 7-N405E (influenza A virus H3N2, UniProt Q38SQ8 18-566).
Assay [2] addresses H1 mini-HA A/Puerto Rico/8/1934 (influenza A virus H1N1, UniProt P03452 18-565).
Assay [3] addresses H1-PR8-dH1 (Steel et al. 2010) (influenza A virus H1N1, UniProt P03452 18-565).
Assay [4] deals with H1 FL HA A/Puerto Rico/8/1934 (influenza A virus H1N1, UniProt P03452 18-565).

B1: CR9114 (antibody, V domains shown)
VH: QVQLVQSGAEVKKPGSSVKVSCKSSGGTSNNYAISWVRQAPGQGLDWMGGISPIFGSTAYAQKFQGRVTISADIFSNTAYMELNSLTSEDTAVYFCARHGNYYYYSGMDVWGQGTTVTVSS
VL: SYVLTQPPAVSGTPGQRVTISCSGSDSNIGRRSVNWYQQFPGTAPKLLIYSNDQRPSVVPDRFSGSKSGTSASLAISGLQSEDEAEYYCAAWDDSLKGAVFGGGTQLTVL
In the case of B1, the binding result in assay [1] is listed as “no binding (tested: 5 microgram/ml)”; in assay [2], “binds”; in assay [3], “no binding (tested: 5 microgram/ml)”; in assay [4], “binds”.
